# Laboratory results published in publication PMC10516667, “Structures and implications of the C962R protein of African swine fever virus” (2023).
# Molecular target: full-length C962R protein (African swine fever virus, UniProt A0A0C5B022)
# Conditions: Mg2+, 32-nt poly(T) ssDNA, BS3 crosslinked, pH 7.5; SF3 helicase ATP site, between neighbouring monomers
smiles,measurement,value
Nc1ncnc2c1ncn2[C@@H]1O[C@H](COP(=O)(O)OP(=O)(O)NP(=O)(O)O)[C@@H](O)[C@H]1O,cryo-EM structure of C962R-DNA-AMPPNP complex,six AMPPNP molecules were captured by the C962R hexamer

# Some compounds may have been tested in ways that are not shown here.
